Experimental data as given in article PMC7265457, “A disulfide constrains the ToxR periplasmic domain structure, altering its interactions with ToxS and bile-salts” (Scientific Reports, 2020).

T1: V. cholerae ToxS periplasmic domain tagged with an N-terminal chitin binding domain (V. cholerae, UniProt P24003 26-173)
T1 construct: also called CBD-ToxSp
T1 sequence: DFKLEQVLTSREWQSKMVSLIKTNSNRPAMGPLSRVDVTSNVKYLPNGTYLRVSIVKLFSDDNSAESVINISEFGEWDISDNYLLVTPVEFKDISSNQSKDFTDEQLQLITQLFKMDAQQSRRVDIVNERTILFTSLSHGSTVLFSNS

B1: V. cholerae non-disulfide bonded ToxR periplasmic domain (domain or fragment)
chain: TNPSQTSFKPLTVVDGVAVNMPNNHPDLSNWLPSIELCVKKYNEKHTGGLKPIEVIATGGQNNQLTLNYIHSPEVSGENITLRIVANPNDAIKVCE
modifications: no disulfide bond (free cysteines)
notes: also called Vc-ToxRp
B2: V. cholerae disulfide ToxR periplasmic domain (domain or fragment)
chain: TNPSQTSFKPLTVVDGVAVNMPNNHPDLSNWLPSIELCVKKYNEKHTGGLKPIEVIATGGQNNQLTLNYIHSPEVSGENITLRIVANPNDAIKVCE
modifications: intra-chain disulfide bond (cysteines C236 and C293)

Columns and labels:
[1] = molecular target: T1, V. cholerae ToxS periplasmic domain …; experiment: pull-down; details: both partners purified
[2] = molecular target: T1, V. cholerae ToxS periplasmic domain …; details: both partners purified

| Binder | amount pulled down (2 mM CDC) relative to Vc-dbToxRp with CDC [1] [relative level] | fold change of the amount pulled down, 2 mM CDC against buffer [1] [fold] | fold change of the amount pulled down, 2 mM CDC against buffer [2] [fold] |
| --- | --- | --- | --- |
| B1 | 0.41 | 4 | – |
| B2 | – | – | 1.6 |

Like-named read-outs stand apart in the source and are kept apart here.
